This experiment has as its target viral glycoproteins (Nipah G and F) (Nipah virus, UniProt Q9IH63). Nature of the experiment: cell-based. To be noted: IC50, fusion assay.

By UniProt entry, the sequences of proteins in these tests, tags left out. Residues count along the entry.
UniProt Q9IH63, 27-109 partner limits assumed: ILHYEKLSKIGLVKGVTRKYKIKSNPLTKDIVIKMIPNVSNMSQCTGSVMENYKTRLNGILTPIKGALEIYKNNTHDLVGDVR
UniProt Q9IH63, 110-546 limits assumed: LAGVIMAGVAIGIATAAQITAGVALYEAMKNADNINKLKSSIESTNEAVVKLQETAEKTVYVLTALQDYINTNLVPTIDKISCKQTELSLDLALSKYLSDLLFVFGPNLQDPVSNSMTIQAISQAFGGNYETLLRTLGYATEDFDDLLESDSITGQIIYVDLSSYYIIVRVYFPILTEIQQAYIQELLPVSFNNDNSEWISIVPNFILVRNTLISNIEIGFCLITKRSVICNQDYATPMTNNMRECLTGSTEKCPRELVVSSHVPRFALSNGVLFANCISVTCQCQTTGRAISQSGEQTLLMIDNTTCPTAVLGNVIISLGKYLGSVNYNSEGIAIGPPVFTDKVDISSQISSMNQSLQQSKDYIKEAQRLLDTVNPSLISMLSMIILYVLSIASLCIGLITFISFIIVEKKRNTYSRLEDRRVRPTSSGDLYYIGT

The record followed here is paper PMC12212376 (Antiviral research, 2025).

Molecules are shown by their SMILES.

Turning to `CC[C@H](C)[C@H](NC(=O)[C@H](CO)NC(=O)[C@H](CC(=O)O)NC(=O)[C@H](CC(C)C)NC(=O)[C@@H](NC(=O)[C@H](CCCCN)NC(=O)[C@H](CC(N)=O)NC(=O)[C@H](CO)NC(=O)[C@H](CCCNC(=N)N)NC(=O)[C@H](CCCNC(=N)N)NC(=O)[C@@H](NC(=O)[C@H](Cc1c[nH]c2ccccc12)NC(=O)[C@H](CCC(=O)O)NC(=O)[C@H](CCCCN)NC(=O)[C@H](CO)NC(=O)[C@H](CCC(=O)O)NC(=O)[C@H](CCC(=O)O)NC(=O)[C@H](CC(C)C)NC(=O)[C@H](CC(=O)O)NC(=O)[C@H](CO)NC(=O)[C@H](CCCCN)NC(=O)[C@@H](NC(=O)[C@H](CCCCN)NC(=O)[C@H](CC(N)=O)NC(=O)[C@H](CC(C)C)NC(=O)[C@@H](NC(=O)[C@@H](NC(=O)[C@H](CO)NC(=O)[C@@H](NC(=O)[C@H](CC(=O)O)NC(=O)[C@@H](NC(=O)[C@@H]1CCCN1C(=O)[C@H](CC(=O)O)NC(=O)[C@H](CC(C)C)NC(=O)[C@H](C)NC(=O)[C@@H](NC(C)=O)C(C)C)[C@@H](C)CC)[C@@H](C)CC)[C@@H](C)CC)C(C)C)[C@@H](C)CC)[C@@H](C)CC)[C@@H](C)CC)C(=O)NCC(=O)N[C@@H](CO)C(=O)NCC(=O)N[C@@H](CO)C(=O)NCC(=O)NC(CSCC(=O)NCCOCCOCCOCCOCCC(=O)O[C@H]1CC[C@@]2(C)C(=CC[C@H]3[C@@H]4CC[C@H]([C@H](C)CCCC(C)C)[C@@]4(C)CC[C@@H]32)C1)C(N)=O` (some centres unmarked) [VIKI-chol-PEG4], the IC50 – broadly, the midpoint of a concentration-inhibition curve – was determined as 4.5 nM (after nebulization) and 3.97 nM (before nebulization).
